Laboratory results: PubChem BioAssay AID624099 (ICCB-Longwood, 2012)
In all, the deposit lists about 21,000 reagents; below is a random part of them. Of all reagents, 497 (2.4%) got an active call. 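Higher z means weaker E2 silencing; only reporter increases were scored, and knock-downs that hurt cell survival may mask genuine repressor factors.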 Unmarked entries are inactive. Reagents against one gene are numbered here.

- Purpose: 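Knock-downs relieving repression by E2 of an HPV18 LCR luciferase reporter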 (primary screen)
- Cells: human C33A cervical carcinoma cells (HPV-negative) stably expressing BPV1 E2 and an HPV18 LCR luciferase reporter
- Reagent: siRNA pool against human genes, 40 nM
- Duration: 72 h
- Detection: 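Per-well luciferase luminescence, z-scored on each plate against the plate mean and SD with control wells left out, then averaged across three replicate plates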
- Direction: mean z-score and z-score: higher = stronger reporter signal, weaker E2 silencing
- Call rule: 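Mean z ≥ 2 together with z ≥ 2 in two or more of the three replicates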

Target gene	pool no.	mean z-score	z-score, replicate A	z-score, replicate B	z-score, replicate C
TCAF1 (TRPM8 channel associated factor 1)	1	-0.42	-0.38	-0.53	-0.36
FBXO30 (F-box protein 30)	1	-2.38	-2.22	-2.68	-2.24
PSD3 (pleckstrin and Sec7 domain containing 3)	1	-0.55	-0.53	-0.72	-0.41
CHUK	1	-0.85	-0.3	-1.38	-0.87
IHO1 (interactor of HORMAD1 1)	1	0.39	0.37	0.48	0.31
ATP5MG (ATP synthase membrane subunit g)	1	-0.74	-0.75	-0.77	-0.7
CELF4 (CUGBP Elav-like family member 4)	1	0.71	0.83	0.48	0.82
LST1 (leukocyte specific transcript 1)	1	0.72	0.86	0.81	0.49
PPP4R1L (protein phosphatase 4 regulatory subunit 1 like (pseudogene))	1	1.07	1.25	1.01	0.96
MRAP2 (melanocortin 2 receptor accessory protein 2)	1	0.62	0.37	0.71	0.77
LINC00898 (long independently transcribed non-coding RNA 898)	1	-0.06	-0.27	-0.51	0.6
SKIC2 (SKI2 subunit of superkiller complex)	1	0.07	0.06	-0.08	0.24
MAJIN (membrane anchored junction protein)	1	0.08	0.13	0.11	0.01
TOX4P1 (TOX high mobility group box family member 4 pseudogene 1)	1	-0.11	-0.13	-0.21	0.01
FAM226A (family with sequence similarity 226 member A)	1	-1.14	-1.57	-0.68	-1.16
RING1 (ring finger protein 1)	1	-0.85	-0.66	-1.1	-0.8
TNMD (tenomodulin)	1	-0.28	-0.64	-0.16	-0.04
CCDC27 (coiled-coil domain containing 27)	1	0.52	-0.23	0.99	0.8
MANF (mesencephalic astrocyte derived neurotrophic factor)	1	-0.73	-0.8	-0.67	-0.71
MCOLN1 (mucolipin TRP cation channel 1)	1	0.28	0.04	0.2	0.6
NBPF11 (NBPF member 11)	1	-0.67	-0.53	-0.94	-0.56
HS3ST5 (heparan sulfate-glucosamine 3-sulfotransferase 5)	1	-0.71	-0.61	-0.81	-0.57
EFEMP2 (EGF-like fibulin extracellular matrix protein 2)	1	1.36	1.72	1.45	0.89
ESS2 (ess-2 spliceosome associated protein)	1	-0.94	-1.03	-0.85	-0.95
ASIC2-AS1 (ASIC2 antisense RNA 1)	1	1.6	1.4	1.99	1.43
SERINC2 (serine incorporator 2)	1	-0.82	-0.98	-0.8	-0.68
RASGRP1 (RAS guanyl releasing protein 1)	1	0.14	0.18		0.1
GALC (galactosylceramidase)	1	-0.07	-0.18	0.06	-0.08
MANEAL (mannosidase endo-alpha like)	1	-2.2	-1.79	-2.39	-2.42
ELP1 (elongator acetyltransferase complex subunit 1)	1	-0.48	-0.67	-0.11	-0.68
PI4K2A (phosphatidylinositol 4-kinase type 2 alpha)	1	-0.56	-0.81	-0.69	-0.18
APOL2 (apolipoprotein L2)	1	0.76	0.96	0.62	0.69
RNF121 (ring finger protein 121)	1	1.1	0.62	1.16	1.52
SERPINA11 (serpin family A member 11)	1	-1.02	-1.03	-0.79	-1.24
DRAM1 (DNA damage regulated autophagy modulator 1)	1	0.18	0.14	0.02	0.37
PGF (placental growth factor)	1	0.01	-0.04	-0.06	0.12
PLEKHG7 (pleckstrin homology and RhoGEF domain containing G7)	1	1.13	1.02	0.99	1.37
PLEKHG7 (pleckstrin homology and RhoGEF domain containing G7)	2	-0.51	-0.24	-0.49	-0.8
TMEM150A (transmembrane protein 150A)	1	0.06	0.17	0.16	-0.14
C19orf48P (chromosome 19 open reading frame 48, pseudogene)	1	0.05	0.03	-0.39	0.52
MTIF3 (mitochondrial translational initiation factor 3)	1	-1.03	-0.85	-1.22	
MSMO1 (methylsterol monooxygenase 1)	1	-0.01	0.45	-0.11	-0.37
PRPF6 (pre-mRNA processing factor 6)	1	0.3	0.24	0.27	0.4
E4F1 (E4F transcription factor 1)	1	-2.19	-2.19	-2.09	-2.29
MDM4 (MDM4 regulator of p53)	1	0.01	0.18	-0.11	-0.02
TIPE2 (TNF alpha induced protein 8 like 2)	1	-0.26	-0.3	-0.41	-0.07
CHN2 (chimerin 2)	1	0.51	0.51	0.58	0.43
THADA (THADA armadillo repeat containing)	1	-0.59	-0.13	-0.15	-1.48
SCARB1 (scavenger receptor class B member 1)	1	-0.29	-0.23	-0.27	-0.37
TARP (TCR gamma alternate reading frame protein)	1	-0.17	0.14	-0.2	-0.44
VEGFC (vascular endothelial growth factor C)	1	0.8	0.83	0.57	1.01
VSTM2A (V-set and transmembrane domain containing 2A)	1	-0.78	-0.85	-0.7	-0.79
ETV4 (ETS variant transcription factor 4)	1	1.58	2.14	1.61	0.98
SIT1 (signaling threshold regulating transmembrane adaptor 1)	1	-0.06	-0.21	0.01	0.03
C12orf71 (chromosome 12 open reading frame 71)	1	0.24	0.66	-0.1	0.17
ITGAX (integrin subunit alpha X)	1	-0.07	-0.05	-0.01	-0.14
ADPRM (ADP-ribose/CDP-alcohol diphosphatase, manganese dependent)	1	-0.35	-0.24	-0.24	-0.56

Already shown: entries from further up.
Target gene	pool no.	mean z-score	z-score, replicate A	z-score, replicate B	z-score, replicate C
RING1 (ring finger protein 1)	1	-0.85	-0.66	-1.1	-0.8
TNMD (tenomodulin)	1	-0.28	-0.64	-0.16	-0.04
CCDC27 (coiled-coil domain containing 27)	1	0.52	-0.23	0.99	0.8
MANF (mesencephalic astrocyte derived neurotrophic factor)	1	-0.73	-0.8	-0.67	-0.71
MCOLN1 (mucolipin TRP cation channel 1)	1	0.28	0.04	0.2	0.6
NBPF11 (NBPF member 11)	1	-0.67	-0.53	-0.94	-0.56
HS3ST5 (heparan sulfate-glucosamine 3-sulfotransferase 5)	1	-0.71	-0.61	-0.81	-0.57
